Results of unrelated studies side by side (data: NIAID ChemDB).

Shared fields: toxicity to cultured cells; endpoint: CC50

CCn is the concentration with n% toxicity to the cells. Blank or dashed fields: not listed here. Lines come from different laboratories, so protocols vary.

compound	cell line	read by	result
O=c1c2ncn(COCCO)c2nc2[nH]c(-c3ccccc3)c(Cc3ccccc3)n12	OST TK-		252 µg/mL
N=C(N)c1ccnc(-c2cc(-c3cc(C(=N)N)ccn3)on2)c1	L6 rat myoblasts	resazurin	130 µM
Cc1cc(-c2nn(C)c(C)c2N=O)no1	MIT-4		9.1 µM
CCOC(=O)C1=C(CN2CC(F)(F)[C@@H]3[C@H]2CON3C[C@H](O)[C@H](CC)C(=O)O)NC(c2nccs2)=N[C@H]1c1cccc(F)c1C	HepG2.2.15	WST / absorbance	>100 µM
O=C(NCCc1ccc2c(n1)NCCC2)Nc1c(F)cccc1F	PBMC		50 µM
Nc1ccn(C[C@@H](CO)OCP(=O)(O)O)c(=O)n1	MKN-28		194.8 µg/mL
Cc1cc(C)n(-c2nc3c(c(=O)n2-c2ccc(NC[C@@H](O)CO)nc2)C[C@@H](C)N(C(=O)c2ccc(Br)c(C(F)(F)F)c2)C3)n1	HepG2.117	luminescence	>0.5 µM
CCOC(=O)C1=C(CN2CC(F)(F)[C@@H]3[C@H]2CON3C[C@H](O)C(C)(C)C(=O)O)NC(c2nccs2)=N[C@H]1c1ccc(F)c(F)c1F	HepG2.2.15	WST / absorbance	>100 µM
c1ccc(CNc2nnc(Nc3ccccc3)nn2)cc1	Mammalian cells		>115 µM
CCCCn1nc(-c2cc(C)on2)c(N=O)c1C	MIT-4		92 µM
COC(=O)C1=C(CN2CC(F)(F)[C@H]3[C@@H]2CCN3C[C@@H](O)C(C)(C)C(=O)O)NC(c2nccs2)=N[C@H]1c1cccc(F)c1F	HepG2.2.15	WST / absorbance	>100 µM
O=C1/C(=C/c2ccc(-c3cc(C(F)(F)F)ccc3Cl)o2)SC(=S)N1Cc1ccc(F)cc1	HT-29	MTT	4.6 µM
Cc1cc(C)n(-c2nc3c(c(=O)n2-c2ccc(NC4CC(O)C4)nc2)C[C@@H](C)N(C(=O)c2ccc(Br)c(C(F)(F)F)c2)C3)n1	HepG2.117	luminescence	>0.5 µM
O=S(=O)(NCCc1ccc2c(n1)NCCC2)c1ccc(C(F)(F)F)cc1	PBMC		50 µM
CC(Nc1nnc(Nc2ccc(Cl)cc2)nn1)c1ccccc1	Mammalian cells		38 µM
CCOC(=O)C1=C(CN2CC(F)(F)[C@H]3[C@@H]2CCN3C[C@](C)(F)C(=O)O)NC(c2nccs2)=N[C@H]1c1cccc(F)c1C	HepG2.2.15	WST / absorbance	49.4 µM
CCc1ccc(CCN=C2NC(=O)/C(=C/c3ccc(-c4ccc(C(=O)O)c(O)c4)o3)S2)cc1	Ramos	MTT	37 µM
CCOC(=O)C1=C(CN2CC(F)(F)[C@@H]3[C@H]2CON3C[C@](C)(O)C(C)(C)C(=O)O)NC(c2nccs2)=N[C@H]1c1cccc(F)c1C	HepG2.2.15	WST / absorbance	>100 µM
O=C(NCCc1ccc2c(n1)NCCC2)NC1CCCOC1	PBMC		50 µM
Cc1cc(C)n(-c2nc3c(c(=O)n2-c2ccc(OC4CC(O)C4)nc2)C[C@@H](C)N(C(=O)c2ccc(Br)c(C(F)(F)F)c2)C3)n1	HepG2.117	luminescence	>0.5 µM
COC(=O)C1=C(CN2CC(F)(F)[C@@H]3[C@H]2CON3C[C@@H](F)C(C)(C)C(=O)O)NC(c2nccs2)=N[C@H]1c1ccc(F)cc1Cl	HepG2.2.15	WST / absorbance	50 µM
Cc1cc(-c2c(N=O)c(C)nn2-c2ccccc2)no1	MIT-4		14 µM
O=C(NCCc1ccc2c(n1)NCCC2)Nc1cccc(F)c1	PBMC		50 µM
Cc1cc(-c2cc(C)n(CCO)n2)no1	MIT-4		>200 µM
O=C(NCCc1ccc2c(n1)NCCC2)Nc1ccc(Cl)cc1	PBMC		1.3 µM
Cc1cc(C)n(-c2nc3c(c(=O)n2-c2ccc(OC4CC(O)C4)cc2)C[C@@H](C)N(C(=O)c2ccc(Br)c(C(F)(F)F)c2)C3)n1	HepG2.117	luminescence	>0.5 µM
Cc1c(-c2ccc(F)cc2)[nH]c2nc3c(ncn3COCCO)c(=O)n12	OST TK-		122 µg/mL
O=C(O)c1ccc(-c2ccc(/C=C3\SC(=S)N(CCc4ccc(Cl)c(Cl)c4)C3=O)o2)cc1O	BAE	MTT	86 µM
CC(=O)N1C(=S)NC2=C(CCc3ccccc32)C1c1cccs1	HUh-7 and HepG2		1788 µM
CNC(=O)c1ccc(-n2c(-n3nc(C)cc3C)nc3c(c2=O)C[C@@H](C)N(C(=O)c2ccc(Br)c(C(F)(F)F)c2)C3)cc1Cl	HepG2.117	luminescence	>0.5 µM
O=C(NCCc1ccc2c(n1)NCC(=O)O2)NCc1ccc(Cl)c(Cl)c1	PBMC		13.8 µM
Cc1cc(C)n(-c2nc3c(c(=O)n2-c2ccc(OC[C@H](O)CO)cc2)C[C@@H](C)N(C(=O)c2ccc(Br)c(C(F)(F)F)c2)C3)n1	HepG2.117	luminescence	>0.5 µM
O=c1c2ncn(COCCO)c2nc2[nH]c(-c3ccc(F)cc3)cn12	OST TK-		92 µg/mL
CCn1nc(C)c(N=O)c1-c1cc(C)on1	MIT-4		42 µM
O=C(Cc1ccc(Cl)c(Cl)c1)NCCc1ccc2c(n1)NCCC2	PBMC		35 µM
CCOC(=O)C1=C(CN2CC(F)(F)[C@@H]3[C@H]2CON3C[C@@H](OC)C(C)(C)C(=O)O)NC(c2nccs2)=N[C@H]1c1ccc(F)cc1Cl	HepG2.2.15	WST / absorbance	72.8 µM
CNc1nnc(NCc2ccccc2)nn1	Mammalian cells		>115 µM
CCCn1nc(-c2cc(C)on2)c(N=O)c1C	MIT-4		14 µM
Cc1cc(C)n(-c2nc3c(c(=O)n2-c2cnc4c(c2)ncn4C)C[C@@H](C)N(C(=O)c2ccc(Br)c(C(F)(F)F)c2)C3)n1	HepG2.117	luminescence	>0.5 µM
[2H][C@@]1(c2cccc(F)c2C)N=C(c2nccs2)NC(CN2CC(F)(F)[C@@H]3[C@H]2CON3C[C@H](O)C(C)(C)C(=O)O)=C1C(=O)OCC	HepG2.2.15	WST / absorbance	100 µM
CCn1nc(C)c(N)c1-c1cc(C)on1	MIT-4		>200 µM
O=C(NCCc1ccc2c(n1)NCCC2)NCCc1cccs1	PBMC		50 µM
Cc1cc(C)n(-c2nc3c(c(=O)n2-c2ccc(NC[C@@H](C)O)nc2)C[C@@H](C)N(C(=O)c2ccc(Br)c(C(F)(F)F)c2)C3)n1	HepG2.117	luminescence	>0.5 µM
Cc1onc(-c2nn(C)c(C)c2[N+](=O)[O-])c1[N+](=O)[O-]	MIT-4		>200 µM
O=c1c2ncn(COCCO)c2nc2[nH]c(-c3ccc(C(F)(F)F)cc3)cn12	OST TK-/HSV-1 TK+		0.2 µg/mL
CC(C)c1ccc(NC(=O)N(C)CCc2ccc3c(n2)NCCC3)cc1	PBMC		50 µM
O=C(O)CSc1nc(-c2cccs2)c2c(n1)-c1ccccc1CC2	HUh-7 and HepG2		516 µM
CCOC(=O)C1=C(CN2CC(F)(F)[C@@H]3[C@H]2CON3C[C@@H](F)C(C)(C)C(=O)O)NC(c2nccs2)=N[C@H]1c1cccc(F)c1C	HepG2.2.15	WST / absorbance	50 µM

Repeating the first 3 entries:

compound | cell line | read by | result
O=c1c2ncn(COCCO)c2nc2[nH]c(-c3ccccc3)c(Cc3ccccc3)n12 | OST TK- |  | 252 µg/mL
N=C(N)c1ccnc(-c2cc(-c3cc(C(=N)N)ccn3)on2)c1 | L6 rat myoblasts | resazurin | 130 µM
Cc1cc(-c2nn(C)c(C)c2N=O)no1 | MIT-4 |  | 9.1 µM